Measured values published in US12049474B2, “Nucleoside prodrugs and uses related thereto” (Emory University, priority 2019, dated 2024).

System: HIV
Assay type: cell-based
Settings: CC50/IC50

| SMILES | Therapeutic Index |
| --- | --- |
| C[C@H](Cn1cnc2c(N)ncnc21)OCP(=O)(O)OCCCSCCCCCCCCCCCCc1ccccc1.N [MD-1-184, Ammonium 3-((12-phenyldodecyl)thio)propyl (R)-(((1-(6-amino-9H-purin-9-yl)propan-2-yl)oxy)methyl)phosphonate] | >12,500 |
| C[C@H](Cn1cnc2c(N)ncnc21)OCP(=O)(O)OCCCOCCCCCCCCCCCCCCCC(F)(F)F.N [NP-PD-158, Ammonium [(1R)-2-(6-aminopurin-9-yl)-1-methyl-ethoxy]methyl-[3-(16,16,16-trifluorohexadecoxy)propoxy]phosphinate] | >4,348 |
| C[C@H](Cn1cnc2c(N)ncnc21)OCP(=O)(O)OCCCCCCCCCCCCCCCCC#C[Si](C)(C)C.N [NP-PD-042, Ammonium [(1R)-2-(6-aminopurin-9-yl)-1-methyl-ethoxy]methyl-(18-trimethylsilyloctadec-17-ynoxy)phosphinate] | 792 |
| C#CCCCCCCCCCCCCCCOCCCOP(=O)(O)CO[C@H](C)Cn1cnc2c(N)ncnc21.N [MD-5-72, Ammonium 3-(hexadec-15-yn-1-yloxy)propyl (R)-(((1-(6-amino-9H-purin-9-yl)propan-2-yl)oxy)methyl)phosphonate] | >758 |
| C[C@H](Cn1cnc2c(N)ncnc21)OCP(=O)(O)OCCCCCCCCCCCCCCCCCC#CC(F)(F)F.N [NP-PD-102, Ammonium [(1R)-2-(6-aminopurin-9-yl)-1-methyl-ethoxy]methyl-(20,20,20-trifluoroicos-18-ynoxy)phosphinate] | 423 |
| CCCCCCCCCCCCCCCOCCCCOP(=O)(O)COC(C)Cn1cnc2c(N)ncnc21.N (racemic) [NP-PD-150, Ammonium 4-pentadecoxybutoxy-[[rac-(1R)-2-(6-aminopurin-9-yl)-1-methyl-ethoxy]methyl]phosphinate] | >3,333 |
| N.[2H]C([2H])([2H])C([2H])([2H])CCCCCCCCCCCCCOP(=O)(O)CO[C@H](C)Cn1cnc2c(N)ncnc21 [EJM-8-030, Ammonium pentadecyl-14,14,15,15,15-d5 (R)-(((1-(6-amino-9H-purin-9-yl)propan-2-yl)oxy)methyl)phosphonate] | >22 |
| C[C@H](Cn1cnc2c(N)ncnc21)OCP(=O)(O)OCCCCCCCCCCCCCCCCCCCC(F)(F)F.N [NP-PD-105, ammonium [(1R)-2-(6-aminopurin-9-yl)-1-methyl-ethoxy]methyl-(20,20,20-trifluoroicosoxy)phosphinate] | 603 |
| C#CCCCCCCCCCCCCCCCCOP(=O)(O)CO[C@H](C)Cn1cnc2c(N)ncnc21.N [Compound B1-1-024, Ammonium octadec-17-yn-1-yl ((((R)-1-(6-amino-9H-purin-9-yl)propan-2-yl)oxy)methyl)phosphonate] | >49 |
| C[C@H](Cn1cnc2c(N)ncnc21)OCP(=O)(O)OCCCSCCCCCCCCCCC#Cc1ccccc1.N [MD-1-183, Ammonium 3-((12-phenyldodec-11-yn-1-yl)thio)propyl (R)-(((1-(6-amino-9H-purin-9-yl)propan-2-yl)oxy)methyl)phosphonate] | >12,500 |
| C[C@H](Cn1cnc2c(N)ncnc21)OCP(=O)(O)OCCCSCCCCCCCCCCCOc1ccccc1.N [MD-1-223, Ammonium 3-((11-phenoxyundecyl)thio)propyl (R)-(((1-(6-amino-9H-purin-9-yl)propan-2-yl)oxy)methyl)phosphonate] | >11,111 |
| COC(=O)CCCCCCCCCCCCCCCSCCCOP(=O)(O)CO[C@H](C)Cn1cnc2c(N)ncnc21.N [MD-1-124, Ammonium 3-((16-methoxy-16-oxohexadecyl)thio)propyl (R)-(((1-(6-amino-9H-purin-9-yl)propan-2-yl)oxy)methyl)phosphonate] | >70 |
| C#CCCCCCCCCCCCCCCCCSCCCOP(=O)(O)CO[C@H](C)Cn1cnc2c(N)ncnc21.N [BI-1-057, Ammonium 3-(octadec-17-yn-1-ylthio)propyl (R)-(((1-(6-amino-9H-purin-9-yl)propan-2-yl)oxy)methyl)phosphonate] | 949 |
| N.[2H]C([2H])([2H])CCCCCCCCCCCCCCCOP(=O)(O)CO[C@H](C)Cn1cnc2c(N)ncnc21 [EJM-8-036, Ammonium hexadecyl-16,16,16-d3 (R)-(((1-(6-amino-9H-purin-9-yl)propan-2-yl)oxy)methyl)phosphonate] | 44 |
| CCCCCCCCCCCCCCOCCCCCOP(=O)(O)COC(C)Cn1cnc2c(N)ncnc21.N (racemic) [NP-PD-154, Ammonium [rac-(1R)-2-(6-aminopurin-9-yl)-1-methyl-ethoxy]methyl-(5-tetradecoxypentoxy)phosphinate] | >1,923 |
| C#CCCCCCCCCCCCCCOP(=O)(O)CO[C@H](C)Cn1cnc2c(N)ncnc21.N [EJM-8-006, Ammonium pentadec-14-yn-1-yl (R)-(((1-(6-amino-9H-purin-9-yl)propan-2-yl)oxy)methyl)phosphonate] | >3 |
| C[C@H](Cn1cnc2c(N)ncnc21)OCP(=O)(O)OCCCSCCCCCCCCCCCSc1ccccc1.N [MD-1-119, Ammonium 3-((11-(phenylthio)undecyl)thio)propyl (R)-(((1-(6-amino-9H-purin-9-yl)propan-2-yl)oxy)methyl)phosphonate] | >2,000 |
| CC(C)OC(=O)[C@H](C)N[P@](=O)(CO[C@H](C)Cn1cnc2c(N)ncnc21)Oc1ccccc1 [TAF, tenofovir alafenamide fumarate, reference compound] | >50,000 and >100,000 |
| C[C@H](Cn1cnc2c(N)ncnc21)OCP(=O)(O)OCCCOCCCCCCCCCCCCCC#CC(F)(F)F.N [NP-PD-149, Ammonium [(1R)-2-(6-aminopurin-9-yl)-1-methyl-ethoxy]methyl-[3-(16,16,16-trifluorohexadec-14-ynoxy)propoxy]phosphinate] | >4,348 |
| CCCCCCCCCCCCCCCCCOCCOP(=O)(O)COC(C)Cn1cnc2c(N)ncnc21.N (racemic) [NP-PD-157, Ammonium 2-heptadecoxyethoxy-[[rac-(1R)-2-(6-aminopurin-9-yl)-1-methyl-ethoxy]methyl]phosphinate] | 27,840 |
| C[C@H](Cn1cnc2c(N)ncnc21)OCP(=O)(O)OCCCCCCCCCCCCCCCCCC[Si](C)(C)C.N [NP-PD-051, Ammonium [(1R)-2-(6-aminopurin-9-yl)-1-methyl-ethoxy]methyl-(18-trimethylsilyloctadecoxy)phosphinate] | 282 |
| CCCCCCCCCCCCCCCCCCOP(=O)(O)CO[C@H](C)Cn1cnc2c(N)ncnc21.N [MD-1-105, Ammonium Octadecyl (R)-(((1-(6-amino-9H-purin-9-yl)propan-2-yl)oxy)methyl)phosphonate] | 895 |
| CCCCCCCCCCCCCCCOP(=O)(O)CO[C@H](C)Cn1cnc2c(N)ncnc21.N [MD-1-106, Ammonium Pentadecyl (R)-(((1-(6-amino-9H-purin-9-yl)propan-2-yl)oxy)methyl)phosphonate] | >49 |
| C#CCCCCCCCCCCCCCCCCCCOP(=O)(O)CO[C@H](C)Cn1cnc2c(N)ncnc21.N [Compound B1-1-065, Ammonium icos-19-yn-1-yl (R)-(((1-(6-amino-9H-purin-9-yl)propan-2-yl)oxy)methyl)phosphonate] | 84 |
| C[C@H](Cn1cnc2c(N)ncnc21)OCP(=O)(O)OCCCSCCCCCCCCCCCCC#C[Si](C)(C)C.N [MD-1-187, Ammonium 3-((14-(trimethylsilyl)tetradec-13-yn-1-yl)thio)propyl (R)-(((1-(6-amino-9H-purin-9-yl)propan-2-yl)oxy)methyl)phosphonate] | >4,167 |

“And” between values parts separate entries of the source, which are not always exact repeats. Equal values may be shown once. Where a name gives a salt, the structure may show the parent alone.
